Experimental data taken from article doi:10.1101/2021.05.31.446396v1.

Test system: Nc1ncnc2c1ncn2[C@@H]1O[C@H](COP(=O)(O)OP(=O)(O)OP(=O)(O)O)[C@@H](O)[C@H]1O
Assay: purified protein
Settings: pH 7.5

## (Mycobacterium tuberculosis H37Rv)
20.0 °C
  Km: 60 ± 30 µM
25.0 °C
  Km: 30 ± 10 µM
